Laboratory results taken from PMC2629585, “Local Inflammation Induces Complement Crosstalk Which Amplifies the Antimicrobial Response” (PLoS Pathogens, 2009).

Legend:
[1] = biological target: T1, C-reactive protein (CRP), endogenous in human patient serum (human (endogenous in serum), UniProt P02741 19-224); test: cell-based or functional assay
T1 sequence (looked up): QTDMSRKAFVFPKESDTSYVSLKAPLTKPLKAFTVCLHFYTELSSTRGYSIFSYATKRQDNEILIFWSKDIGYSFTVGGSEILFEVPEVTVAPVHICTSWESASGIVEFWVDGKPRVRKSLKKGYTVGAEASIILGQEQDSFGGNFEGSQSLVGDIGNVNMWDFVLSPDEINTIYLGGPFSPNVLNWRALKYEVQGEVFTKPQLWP

[2] = biological target: T2, C-reactive protein (CRP), human, purified (Sigma) (human, UniProt P02741 19-224); test: ELISA; competition; 0.8 ug CRP immobilised; 0.8 ug C1q with increasing L-ficolin or 0.8 ug L-ficolin with increasing C1q; MBS, 0.05% Tween-20, 1% HSA, pH 6.5, 2 mM calcium; conditions: both partners purified
T2 construct: human C-reactive protein, bought from Sigma; purity checked by SDS PAGE and mass spectrometry; source: bought: Sigma
T2 sequence (looked up): T1 sequence (looked up)

B1: L-ficolin (natural protein, human, UniProt Q15485 26-313, looked up)
chain: LQAADTCPEVKMVGLEGSDKLTILRGCPGLPGAPGPKGEAGTNGKRGERGPPGPPGKAGPPGPNGAPGEPQPCLTGPRTCKDLLDRGHFLSGWHTIYLPDCRPLTVLCDMDTDGGGWTVFQRRVDGSVDFYRDWATYKQGFGSRLGEFWLGNDNIHALTAQGTSELRVDLVDFEDNYQFAKYRSFKVADEAEKYNLVLGAFVEGSAGDSLTFHNNQSFSTKDQDNDLNTGNCAVMFQGAWWYKNCHVSNLNGRYLRGTHGSFANGINWKSGKGYNYSYKVSEMKVRPA
notes: L-ficolin (ficolin-2), human, native, 35 kDa on SDS PAGE; Native oligomer; also called native L-ficolin; source: purified from human serum; endogenous, human serum (co-IP)
Question: Which results are given for B1?
Answer: C3 deposition on P. aeruginosa by flow cytometry (anti-C3d), whole patient serum against whole normal serum, after subtracting CRP- and ficolin-depleted serum [1]: 7 fold; fold change of binding, infection-inflammation against physiological condition [2]: 5 fold
